In article PMC7923509:

tested on: His-QsvR (Vibrio parahaemolyticus); assay: EMSA; settings: EMSA: 10 mM Tris-HCl pH 7.5, 50 mM NaCl, 1 mM MgCl2, 0.5 mM EDTA, 0.5 mM DTT, 10 ul; recombinant protein; residues 1-267; protein details: 6xHis (pET28a); label: 5'-32P; probe letters rebuilt from the primers and the genome

Row | Sequence | binding result
1 | CGAGCGAATTACTATTTGGATCAAAGGTAAACCTTTGAGCAAGTAGAAATTTGGTGCCGATGTTAGTCATTTAGTTCTTCTTAGATGGATGATGTTGTAATTATGGTGATTTATATCACAAAATTACGTTTGCGCATGGGAGATACGCGACGTTTTAGATGCTTTTAGGGGGGTAGGATAATTAAATTTTTCTAAAAAAACACCGTTTTTAGCAATATTGACCTTGAATTTACATTTGTCAGCCACATGTTAAATGACATCTTAGTGTGGTGATTTCATGGGGCTAAATCACAAAGTCGTCCCTGAAAAAGCCTGTTAGTTTAGATGTTATGGAGCACACATGAGCGAAACCGTATCTCAAAATAAAGAAACTCGTGGTTTTCAATCAGAAGTAAAACAACTACTTCATTTAATGATCCATTCTCTTTATTCCAATAAAGAGATCTTTTTGCGCGAGCTGATTTCTAACGCATCAGATGCATCAGACAAATTGCGTTTTCAGGCACTTTCGAATCCAGATTTATATGAAGGTAACGCAGATCTTGGCGTTAAGCTGTCATTTGATGAAAGTGCAAATACCTTAACGAT (double strand) [toxR promoter EMSA probe] | binds
2 | GTTTGTTTGCTCGGATTGTTTGTGGCAAACACATAATAACTATTAACTACCTATTATTACGTTTCTTCCAACATTCCTACGTGGTACTTGATGCAGCTTTTCGATTTCGAAGGGCTGCATTTTTATTCCCTCTCGTTCATTTCTATTCATTGTTTAATTGCAGATTATTTGACTGATACGCGCAAATTTGCGCCAAAGACATAGGCTGTGTTTTTTGGTCCGTTGGTTATTGATAGGTGGGGTAAATGTGTTTCGATGTTTGTTCTTAGTCTTATCAATTTGCTAAATACATACTCAAAGAGTGTGGTTTTAGTTGTTTTATAGTTTTTTATGTTTTTTTCAATTTGTTGATTTTAAATGATTAAATACCTAAGTGGCTAAAATTTAGTGATTAAATATCAATCTAGTTGCTAAACCCCAATCGATTAGTTGATAGTACGCTTCGAGCCGGAAGTATCCGGACGATAAATATAATAAAAATTAGGTTTCTATTCGTAAAAATGATTCGAATCCAGCCGCCGTCTTTTGTGCGAGATGGGATTCTATTCGTTATGAATTCATTGAAACAATTTGACGATTACAAAAGAGGCGCACTCAATGTTAGAGAAGAAAGATGCGATGAGCGCAATTGCTAGCTACCGTATGGAAAGCACTTTG (double strand) [calR promoter EMSA probe] | binds
3 | GATTTCAGGCTTTTCCGTGTACTGTTCCATAATGTTTCTCATACTTTCATTAACTTAAGATTCTTAATTTCGTAGTTAATTATCAGCACTCAAGCTCATATCTAAGTGCTAGACAACAGAGTAAAGTTATTTACTACCTTTTTGAATTACTAATTTATTAAAAACAGAAACAAAAAAAGTGTTTCTCATAAAAGAAACACTTTTAACTAAGGCTATTTTTAAAAAAATATACGTATGCACTAAATTAGTTAGGTATTTTTTATAAAATCAAACCATCTCTATAGAGTGATCTGAAATATTTTCTTTTGCCCAAATCAGTGCTTGTACTCTGTTTTTTACATCAATCTTTTTAAAAATATTGTGAAGATGCGTTTTAACTGTATTTTCGCTTACAAATAACTGTTCGGCTATTTGTTGATTAGAGGCCCCCATAGATAAAAACGTAATGATCTGTTGTTCTCGCTTAGTCAGTATTGCTGGAAC (double strand) [cpsQ promoter EMSA probe] | binds

tested on: His-QsvR (Vibrio parahaemolyticus); assay: DNase I footprinting; settings: 5 mM CaCl2 and 10 mM MgCl2 solution added before digestion; footprinting: same binding buffer, room temperature, 30 min; recombinant protein; residues 1-267; protein details: 6xHis (pET28a); label: 5'-32P on one strand (coding or noncoding); probe letters rebuilt from the primers and the genome

Row | Sequence | binding result
4 | TTTCAGGGACGACTTTGTGATTTAGCCCCATGAAATCACCACACTAAGATGTCATTTAACATGTGGCTGACAAATGTAAATTCAAGGTCAATATTGCTAAAAACGGTGTTTTTTTAGAAAAATTTAATTATCCTACCCCCCTAAAAGCATCTAAAACGTCGCGTATCTCCCATGCGCAAACGTAATTTTGTGATATAAATCACCATAATTACAACATCATCCATCTAAGAAGAACTAA (double strand) [toxR footprinting probe] | binds
5 | ACATACTATTAAATCGCATCTATACAATATTTTTAGAAAGTTAGAAGTGAAAAATAGGACGCAAGCCACAAGTTGGGCAAAAAGAAACCTCTAGTACTAGGAATAACTGCATGTAATTAAAAGAAAACAATAGATAAAGTACTAAGTTTTATATTTATAATTAAAAGGTCAGTTAGAAATATCATCCCATATTCAAACTCATTCTTATCCACTTGGCTATTAGACTTCTCATGTCTGGAACGAATCTCATCAGACGTGGAATAAAAGGTCTATTCAATAAATAAGCCAGAGGGAAT (double strand) [mfpA footprinting probe] | binds
6 | TACCTAACTAATTTAGTGCATACGTATATTTTTTTAAAAATAGCCTTAGTTAAAAGTGTTTCTTTTATGAGAAACACTTTTTTTGTTTCTGTTTTTAATAAATTAGTAATTCAAAAAGGTAGTAAATAACTTTACTCTGTTGTCTAGCACTTAGATATGAGCTTGAGTGCTGATAATTAACTACGAAATTAAGAATCTTAAGTTAATGAAAGTATGAGAAACATTATGGAACAGTACACGGAAAAGCCTGAAATC (double strand) [cpsQ footprinting probe] | binds

The exact form of at least one protein or probe is not confirmed.
